By UniProt entry, the sequences of proteins in these tests, tags left out. Where a name states a change or a piece, a line headed by the entry shows the natural chain unless it says otherwise.
UniProt P07711: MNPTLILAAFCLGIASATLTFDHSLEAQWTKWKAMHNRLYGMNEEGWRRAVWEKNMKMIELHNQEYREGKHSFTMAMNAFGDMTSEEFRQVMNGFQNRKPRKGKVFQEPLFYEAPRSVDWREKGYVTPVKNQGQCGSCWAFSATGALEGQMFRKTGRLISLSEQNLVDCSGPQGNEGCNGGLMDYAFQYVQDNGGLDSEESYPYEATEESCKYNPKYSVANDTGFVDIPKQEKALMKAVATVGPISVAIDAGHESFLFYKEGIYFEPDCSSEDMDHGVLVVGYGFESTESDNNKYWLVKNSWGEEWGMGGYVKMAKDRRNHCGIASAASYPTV

In ChEMBL document CHEMBL5375961, “Design, Synthesis, and Biological Evaluation of Trisubstituted Piperazine Derivatives as Noncovalent Severe Acute Respiratory Syndrome Coronavirus 2 Main Protease Inhibitors with Improved Antiviral Activity and Favorable Druggability” (J Med Chem, 2023):

What was measured:
[1] = molecular target: Cathepsin B (Homo sapiens) (UniProt P07858); assay: Inhibition of human Cathepsin B using Z-Leu-Arg-AMC as substrate upto 50 uM incubated for 60 mins by FRET assay
[2] = molecular target: Procathepsin L (Homo sapiens) (UniProt P07711); assay: Inhibition of human Cathepsin L using Z-Leu-Arg-AMC as substrate upto 50 uM incubated for 60 mins by FRET assay
[3] = molecular target: T1, Cathepsin F (Homo sapiens) (UniProt Q9UBX1); assay: Inhibition of human Cathepsin F using Z-Phe-Arg-AMC as substrate upto 50 uM incubated for 60 mins by FRET assay
T1 sequence (whole entry): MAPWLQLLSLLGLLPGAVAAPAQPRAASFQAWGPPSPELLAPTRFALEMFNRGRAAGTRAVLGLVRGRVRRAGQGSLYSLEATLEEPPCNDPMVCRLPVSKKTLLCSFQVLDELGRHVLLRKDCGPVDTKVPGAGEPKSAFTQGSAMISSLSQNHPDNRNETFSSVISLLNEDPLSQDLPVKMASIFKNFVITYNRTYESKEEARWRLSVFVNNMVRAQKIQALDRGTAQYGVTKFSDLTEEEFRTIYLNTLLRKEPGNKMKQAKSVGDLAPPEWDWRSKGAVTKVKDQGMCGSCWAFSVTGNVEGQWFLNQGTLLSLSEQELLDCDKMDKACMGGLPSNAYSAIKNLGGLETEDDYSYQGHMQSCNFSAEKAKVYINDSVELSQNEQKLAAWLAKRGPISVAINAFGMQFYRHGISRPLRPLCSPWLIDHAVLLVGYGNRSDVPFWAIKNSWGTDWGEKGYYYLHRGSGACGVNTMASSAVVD

[4] = molecular target: T2, Cathepsin K (Homo sapiens) (UniProt P43235); assay: Inhibition of human Cathepsin K using Ac-LR-AFC as substrate upto 50 uM incubated for 60 mins by FRET assay
T2 sequence (whole entry): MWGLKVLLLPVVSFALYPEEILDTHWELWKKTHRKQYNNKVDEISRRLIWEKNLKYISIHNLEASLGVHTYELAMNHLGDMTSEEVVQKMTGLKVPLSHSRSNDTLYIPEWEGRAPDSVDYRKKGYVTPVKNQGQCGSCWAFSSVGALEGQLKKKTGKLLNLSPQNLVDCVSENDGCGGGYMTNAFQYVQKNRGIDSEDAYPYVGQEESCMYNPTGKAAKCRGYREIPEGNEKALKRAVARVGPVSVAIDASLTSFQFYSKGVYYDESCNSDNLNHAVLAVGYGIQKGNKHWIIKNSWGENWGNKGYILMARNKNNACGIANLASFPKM

Measured: inhibition

COc1ccc(NC(=O)[C@@H]2CN(C(=O)c3cnccc3OC)CCN2c2ccc(Cl)c(Cl)c2)cc1
inactive: all assays above

Active and inactive are the calls of the source.
